The source of these data is patent US6967075B2 (priority 2000, dated 2005).

Amino acid sequences for entries named in this document (tags omitted). A change or cut given only in a name is not applied to a line headed by its entry.
UniProt P03300: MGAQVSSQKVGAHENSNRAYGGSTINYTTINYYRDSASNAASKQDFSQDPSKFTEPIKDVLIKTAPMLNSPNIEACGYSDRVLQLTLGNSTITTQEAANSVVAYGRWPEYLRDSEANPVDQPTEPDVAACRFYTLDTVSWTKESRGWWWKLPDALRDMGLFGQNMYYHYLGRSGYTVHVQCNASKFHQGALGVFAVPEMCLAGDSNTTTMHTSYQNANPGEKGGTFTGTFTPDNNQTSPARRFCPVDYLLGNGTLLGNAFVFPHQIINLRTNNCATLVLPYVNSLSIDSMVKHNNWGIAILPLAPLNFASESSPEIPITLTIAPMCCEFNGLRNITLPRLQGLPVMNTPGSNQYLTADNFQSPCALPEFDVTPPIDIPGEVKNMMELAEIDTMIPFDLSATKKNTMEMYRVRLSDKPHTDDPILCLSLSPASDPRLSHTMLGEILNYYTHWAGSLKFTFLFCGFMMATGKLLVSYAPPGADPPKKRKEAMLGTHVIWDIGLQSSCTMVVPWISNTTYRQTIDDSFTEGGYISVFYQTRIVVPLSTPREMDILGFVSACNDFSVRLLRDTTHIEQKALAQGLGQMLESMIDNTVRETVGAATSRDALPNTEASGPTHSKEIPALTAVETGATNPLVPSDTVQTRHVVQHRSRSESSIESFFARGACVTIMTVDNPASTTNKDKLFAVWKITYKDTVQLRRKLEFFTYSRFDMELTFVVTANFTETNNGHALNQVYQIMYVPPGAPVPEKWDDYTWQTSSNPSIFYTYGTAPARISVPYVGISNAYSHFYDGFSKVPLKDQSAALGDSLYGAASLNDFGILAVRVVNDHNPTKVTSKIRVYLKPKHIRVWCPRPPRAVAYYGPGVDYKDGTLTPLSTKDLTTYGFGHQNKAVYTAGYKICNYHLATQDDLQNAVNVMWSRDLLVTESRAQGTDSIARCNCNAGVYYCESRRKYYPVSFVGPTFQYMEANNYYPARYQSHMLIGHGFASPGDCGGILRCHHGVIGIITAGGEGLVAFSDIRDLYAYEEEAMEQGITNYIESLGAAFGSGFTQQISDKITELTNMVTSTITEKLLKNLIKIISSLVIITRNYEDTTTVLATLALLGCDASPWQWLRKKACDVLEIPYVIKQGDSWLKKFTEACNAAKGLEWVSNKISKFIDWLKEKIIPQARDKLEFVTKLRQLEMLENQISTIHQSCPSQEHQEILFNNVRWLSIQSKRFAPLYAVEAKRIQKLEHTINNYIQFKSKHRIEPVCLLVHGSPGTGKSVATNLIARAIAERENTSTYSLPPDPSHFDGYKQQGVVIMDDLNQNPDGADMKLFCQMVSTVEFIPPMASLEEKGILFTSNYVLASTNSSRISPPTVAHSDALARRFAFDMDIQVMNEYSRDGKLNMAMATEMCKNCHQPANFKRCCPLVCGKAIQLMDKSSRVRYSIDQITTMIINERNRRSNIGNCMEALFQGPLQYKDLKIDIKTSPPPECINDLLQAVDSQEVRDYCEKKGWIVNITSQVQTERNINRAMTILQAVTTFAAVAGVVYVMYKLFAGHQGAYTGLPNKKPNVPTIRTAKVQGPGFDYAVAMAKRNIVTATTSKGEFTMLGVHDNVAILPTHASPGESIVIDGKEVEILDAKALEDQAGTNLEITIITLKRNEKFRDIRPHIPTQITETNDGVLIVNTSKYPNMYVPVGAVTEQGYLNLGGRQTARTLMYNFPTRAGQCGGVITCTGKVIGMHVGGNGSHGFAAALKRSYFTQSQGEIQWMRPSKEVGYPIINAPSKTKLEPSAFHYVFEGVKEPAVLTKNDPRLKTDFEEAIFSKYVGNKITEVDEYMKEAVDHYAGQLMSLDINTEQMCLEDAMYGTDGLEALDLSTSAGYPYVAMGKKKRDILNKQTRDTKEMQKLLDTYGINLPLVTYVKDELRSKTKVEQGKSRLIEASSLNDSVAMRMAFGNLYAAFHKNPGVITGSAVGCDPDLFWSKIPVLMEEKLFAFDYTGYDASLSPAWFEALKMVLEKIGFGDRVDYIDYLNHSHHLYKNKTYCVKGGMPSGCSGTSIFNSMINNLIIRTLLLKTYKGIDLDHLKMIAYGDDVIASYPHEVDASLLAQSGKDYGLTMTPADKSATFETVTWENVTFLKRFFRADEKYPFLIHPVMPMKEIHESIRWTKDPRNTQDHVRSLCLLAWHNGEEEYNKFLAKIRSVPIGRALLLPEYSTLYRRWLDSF

This experiment deals with PV 3Dpol (Poliovirus type 1, UniProt P03300). Kind of experiment: Template usage assay with pre-annealed sym/sub RNA. As to conditions: 0.5 μM end-labeled sym/sub RNA, 100 μM ATP, 5 μM polymerase.

With 5′ GCA UGG GCC C 3′, the “extension/utilization of end-labeled RNA” value is “efficiently utilized”.
